From publication PMC4624681 (2015)

T1: Ig V domain of human T-cell immunoglobulin and mucin domain protein 1 (hTIM-1) (human, UniProt Q96D42 22-127)
T1 chain: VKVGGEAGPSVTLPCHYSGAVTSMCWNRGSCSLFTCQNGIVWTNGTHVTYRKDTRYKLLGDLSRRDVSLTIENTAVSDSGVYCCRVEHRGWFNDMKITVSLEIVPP

B1: Zaire GP (1–320) with a His tag (domain or fragment)
chain: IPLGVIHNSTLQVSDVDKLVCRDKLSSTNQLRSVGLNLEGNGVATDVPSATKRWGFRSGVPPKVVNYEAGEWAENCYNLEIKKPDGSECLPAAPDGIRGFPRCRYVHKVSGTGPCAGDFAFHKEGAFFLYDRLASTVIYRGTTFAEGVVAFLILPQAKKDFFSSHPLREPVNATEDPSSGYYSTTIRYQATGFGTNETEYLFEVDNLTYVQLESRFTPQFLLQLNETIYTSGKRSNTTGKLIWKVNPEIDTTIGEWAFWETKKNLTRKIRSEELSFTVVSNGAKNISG
B2: Zaire GP (1–308) with a His tag (domain or fragment)
chain: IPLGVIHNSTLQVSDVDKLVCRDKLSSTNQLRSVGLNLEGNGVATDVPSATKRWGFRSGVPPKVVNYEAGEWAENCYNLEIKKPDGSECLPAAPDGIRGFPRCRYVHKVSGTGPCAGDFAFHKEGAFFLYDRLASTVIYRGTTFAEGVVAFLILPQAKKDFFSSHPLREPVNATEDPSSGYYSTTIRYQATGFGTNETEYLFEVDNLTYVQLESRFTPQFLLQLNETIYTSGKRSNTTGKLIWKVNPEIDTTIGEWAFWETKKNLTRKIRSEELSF

Target: T1, Ig V domain of human T-cell …
Test: SPR

| Binder | Kd [µM] |
| --- | --- |
| B1 | 26.7 |
| B2 | 12 |
